Results: patent publication US20210292392A1 (TSB THERAPEUTICS BEIJING, published 2021)

Target: recombinant RBD of the spike protein of MERS-CoV (MERS-CoV, UniProt K9N5Q8 381-588)
Assay: SPR, RBD on CM5 chip

Row | Binder | binding result
1 | P2B-2F6 (antibody, V domains shown, human IgG1, lambda) VH: QVQLQESGPGLVKPSETLSLTCTVSGYSISSGYYWGWIRQPPGKGLEWIGSIYHSGSTYYNPSLKTRVTISVDTSKNQFSLKLSSVTAADTAVYYCARAVVGIVVVPAAGRRAFDIWGQGTMVTVSS VL: QSALTQPPSASGSPGQSVTISCTGTSSDVGGYNYVSWYQQHPGKAPKLMIYEVSKRPSGVPDRFSGSKSGNTASLTVSGLQAEDEADYYCSSYAGSNNLVFGGGTKLTVLG | no binding (tested: not printed)
2 | P2B-2G4 (antibody, V domains shown, human IgG1, lambda) VH: QVQLVESGGGVVQPGRSLRLSCAASGFTFSSYGMHWVRQAPGKGLEWVAVIWYDGSNKYYADSVKGRFTISRDNSKNTLYLQMNSLRAEDTAVYYCARGAAMVWLDYWGQGTLVTVSS VL: QSALTQPRSVSGSPGQSVTISCTGTSSDVGGYNYVSWYQQHPGKAPKLMIYDVSKRPSGVPDRFSGSKSGNTASLTISGLQAEDEADYYCCSYAGSYTFVVFGGGTKLTVLG | no binding (tested: not printed)
3 | P2B-2G11 (antibody, V domains shown, human IgG1, lambda) VH: EVQLVESGGGLVQPGRSLRLSCAASGFTFDDYAMHWVRQAPGKGLEWVSGISWNGGIIGYADSVKGRFTISRDNAKTSLYLQMNSLKPEDTALYYCAKVAGRGDYDYYYGMDVWGQGTTVTVSS VL: QSVLTQPPSVSGAPGQRVTISCTGSSSNIGAGYDVHWYQQLPGTAPKLLIYGNNNRPSGVPDRFSGSKSGTSASLAITGLQAEDEADYYCQSYDSSLSGSVFGGGTKLTVLG | no binding (tested: not printed)
